Anti-infective test results gathered from many reports (values: NIAID ChemDB through PubChem).

Common to all: tests on isolated targets; organism: HIV-1; target: Protease; read-out: inhibition

Conditions beyond the fields shown may differ between rows. Percent inhibition refers to the dose given; in toxicity tests it is the harm to the cells. Blank or dashed fields: not listed here.

compound | strain | method | dose | value
COc1ccc(CN2C[C@@H](O)[C@@H](Cc3ccccc3)N(Cc3cccc(N)c3)C(=O)N2Cc2cccc(N)c2)cc1 | - | fluorescence | 0.0005 µM | 70.7%
CC(C)[C@H](NC(=O)OCc1ccccc1)C(=O)N[C@@H](Cc1ccccc1)[C@H](O)[C@H](Cc1ccccc1)NC(=O)[C@@H](NC(=O)OCc1cccnc1)C(C)C | - | fluorescence | 0.005 µM | 59%
CC1=CC(C)(C)Nc2ccc(OC(=O)c3cccs3)cc21 | - | - | 150 µM | 35.92%
Cc1ccccc1-n1nnc(C(c2ccccc2)(c2ccccc2)n2ccnc2)c1C | - | substrate cleavage / fluorescence | 2 µg/mL | 25%
NS(=O)(=O)c1cccc(CN2C(=O)N(Cc3cccc(S(N)(=O)=O)c3)N(Cc3ccccc3)C[C@@H](O)[C@H]2Cc2ccccc2)c1 | - | fluorescence | 0.0005 µM | 54.8%
O=C1O[C@H]2[C@@H]3OC(=O)c4cc(O)c(O)c(O)c4-c4c(cc(O)c(O)c4O)C(=O)OC[C@H]2O[C@@H](OC(=O)c2cc(O)c(O)c(O)c2)[C@@H]3OC(=O)c2cc(O)c(O)c3c2[C@@H]2C1=CC(=O)[C@](O)(O3)C2(O)O | - | fluorescence | 50 µg/mL | 81%
Cc1c(O)cccc1C(=O)N[C@@H](Cc1ccccc1)[C@H](O)C(=O)N1CSC(C)(C)[C@H]1C(=O)NC(C)(C)C | - | - | 87.6 µM | 0.05%
COc1ccc(-c2cc(=O)c3c(O)cc(OC4OC(COC5OC(C)C(O)C(O)C5O)C(O)C(O)C4O)cc3o2)cc1 | - | HPLC | 50 µg/mL | 0%
CC(C)(C)NC(=O)[C@@H]1CSCN1C(=O)[C@@H](O)[C@H](Cc1ccccc1)NC(=O)CC(C)(C)C(=O)O | - | - | 19.7 µM | 0.05%
CC1=CC(C)(C)Nc2ccc(OS(=O)(=O)Cc3ccccc3)cc21 | - | - | 150 µM | 40.41%
CC(C(=O)O)C(C)C(=O)N[C@@H](Cc1ccccc1)[C@H](O)C(=O)N1CSC[C@H]1C(=O)NC(C)(C)C | - | - | 96.5 µM | 5%
O=C1[C@H]2CCCC[C@H]2C(=O)N1c1ccc2[nH]c(=S)sc2c1 | - | - | 150 µM | 48.1%
C[C@@H]1O[C@@H](O[C@H]2[C@H](Oc3cc(O)c4c(=O)cc(-c5ccc(O)cc5)oc4c3)O[C@H](CO)[C@@H](O)[C@@H]2O)[C@H](O)[C@H](O)[C@H]1O | - | HPLC | 50 µg/mL | 25.1%
COc1cc(OC)cc(C(=O)Oc2ccc3c(c2)C(C)=CC(C)(C)N3)c1 | - | - | 150 µM | 40.78%
Cc1cc(CN2C(=O)N(Cc3ccc(O)c(C)c3)N(Cc3ccccc3)C[C@@H](O)[C@H]2Cc2ccccc2)ccc1O | - | fluorescence | 0.0005 µM | 61.4%
CC(C)[C@H](N)C(=O)N[C@H](C(=O)N[C@@H](CC(N)=O)C(=O)O)[C@@H](C)O | BH10 | HPLC | 100 µM | <1%
O=C1OC2[C@H]3COC(=O)c4cc(O)c(O)c5c4C4C(=CC(=O)[C@@](O)(O5)C4(O)O)C(=O)O[C@@H]2[C@@H](OC(=O)c2cc(O)c(O)c4c2C2C1=CC(=O)[C@](O)(O4)C2(O)O)[C@H](OC(=O)c1cc(O)c(O)c(O)c1)O3 | - | fluorescence | 50 µg/mL | 61.1%
CC(C)[C@H](NC(=O)N(C)Cc1ccccn1)C(=O)N[C@@H](Cc1ccccc1)[C@H](O)[C@H](O)[C@H](Cc1ccccc1)NC(=O)[C@@H](NC(=O)N(C)Cc1ccccn1)C(C)C | - | fluorescence | 0.001 µM | 62%
COc1ccc(-c2cc(=O)c3ccc(O)cc3o2)cc1 | - | HPLC | 50 µg/mL | 0%
CC(C)[C@H](NC(=O)OCc1ccncc1)C(=O)N[C@@H](Cc1ccccc1)[C@@H](O)[C@H](O)[C@H](Cc1ccccc1)NC(=O)[C@@H](NC(=O)OCc1ccncc1)C(C)C | - | fluorescence | 0.005 µM | 74%
Cc1cc(=O)[nH]c2ccc(S(=O)(=O)NCc3ccccc3)cc12 | - | - | 150 µM | 32.26%
CC(C)[C@H](NC(=O)OCc1ccccc1)C(=O)N[C@@H](Cc1ccccc1)[C@H](O)[C@@H](O)[C@H](Cc1ccccc1)NC(=O)[C@@H](NC(=O)OCc1ccccc1)C(C)C | - | fluorescence | 0.001 µM | 65%
O=C(Nc1ccc(F)cc1F)c1cc2n(n1)[C@H](C(F)(F)F)C1CCCCC1N2 | - | - | 150 µM | 35.09%
CC[C@H](C)C(O)C(C)(O)/C=C/C1=CC2=CC(=O)[C@](C)(O)[C@H](O)[C@H]2CO1 | - | - | 100 µg/mL | 0%
CC(C)[C@H](NC(=O)OCc1ccccn1)C(=O)NC(Cc1ccccc1)C(O)C(F)(F)C(Cc1ccccc1)NC(=O)[C@@H](NC(=O)OCc1ccccn1)C(C)C | - | fluorescence | 0.001 µM | 71%
O=c1c(O)c(-c2ccc(O)cc2O)oc2cc(O)cc(O)c12 | - | fluorescence | 50 µg/mL | 68.8%
CC(C)[C@H](NC(=O)OCc1ccccc1)C(=O)N[C@@H](Cc1ccccc1)[C@H](O)[C@H](Cc1ccccc1)NC(=O)[C@@H](NC(=O)OCC1CCCCN1C)C(C)C | - | fluorescence | 0.05 µM | 49%
O=c1cc(-c2ccc(O)cc2)oc2cc(O)c(O)c(O)c12 | - | HPLC | 50 µg/mL | 79.1%
CC(C)[C@H](NS(=O)(=O)N(C)Cc1ccccn1)C(=O)N[C@@H](Cc1ccccc1)[C@H](O)[C@@H](O)[C@H](Cc1ccccc1)NC(=O)[C@@H](NS(=O)(=O)N(C)Cc1ccccn1)C(C)C | - | fluorescence | 0.05 µM | 56%
O=c1[nH]c2ccc(S(=O)(=O)NCc3ccccc3)cc2o1 | - | - | 150 µM | 25.52%
CC(C)[C@H](NC(=O)OCc1nccs1)C(=O)N[C@@H](Cc1ccccc1)C(O)[C@H](Cc1ccccc1)NC(=O)[C@@H](NC(=O)OCc1nccs1)C(C)C | - | fluorescence | 0.01 µM | 63%
COc1cc(CN2C(=O)N(Cc3ccc(O)c(OC)c3)N(Cc3ccccc3)C[C@@H](O)[C@H]2Cc2ccccc2)ccc1O | - | fluorescence | 0.0005 µM | 81%

The last 3 rows once more:

compound,strain,method,dose,value
O=c1[nH]c2ccc(S(=O)(=O)NCc3ccccc3)cc2o1,-,-,150 µM,25.52%
CC(C)[C@H](NC(=O)OCc1nccs1)C(=O)N[C@@H](Cc1ccccc1)C(O)[C@H](Cc1ccccc1)NC(=O)[C@@H](NC(=O)OCc1nccs1)C(C)C,-,fluorescence,0.01 µM,63%
COc1cc(CN2C(=O)N(Cc3ccc(O)c(OC)c3)N(Cc3ccccc3)C[C@@H](O)[C@H]2Cc2ccccc2)ccc1O,-,fluorescence,0.0005 µM,81%